# Reference: patent publication US7531573B2 (priority 1994, dated 2009)
# Legend:
# Gardos channel [1] = target: T1, Gardos channel (Homo sapiens, UniProt O15554); assay: Displacement of 125I-ChTX binding to red cells; conditions: 50 nM
# Gardos channel [2] = target: T1, Gardos channel; conditions: Brugnara, 1993; cited from earlier work
substance,measurement,setting,value
Charybdotoxin,125I-ChTX Binding,Gardos channel [1],0.608
same,Displacement (%),Gardos channel [1],100.0%
same,IC50 for displacement of 125I-ChTX relative to inhibition of K+ transport,Gardos channel [2],two to three fold increase
